A mixed list of measured activities; the numbers were collected in NIAID ChemDB.

Common to all: growth or infection tests; species: Mycobacterium tuberculosis

Lines come from different laboratories, so protocols vary. ECn: concentration that inhibits the pathogen or its effect by n%. Percent inhibition refers to the dose given; in toxicity tests it is the harm to the cells. MIC bound comes from a single tested concentration. Blank or dashed fields: not listed here. Fold resistance: result on the changed form divided by that on wild type. A number after MIC or MFC names an inhibition level or a share of isolates.

SMILES,dose,changes,strain,measure,method,value
CC(C)C(=O)C1C/C(=C/c2ccccn2)C(=O)/C(=C/c2cccnc2)C1,,,18b,MIC,resazurin,4 µg/mL
CCc1nc2ccccc2n1CCCCSc1nccs1,,,H37Rv,MIC99,turbidity / fluorescence,>20 µM
CCCC(C)C(=O)Nc1nc2c(s1)C(=O)CC(C)(C)C2,,,18b,MIC,resazurin,2 µg/mL
O=C(COc1cnccn1)N/N=c1\scc(-c2ccccc2)n1-c1ccc(Cl)cc1[N+](=O)[O-],,,H37Rv,MIC,,5.2 µg/mL
Cn1ncc(=O)c(Cl)c1Cl,6.25 µg/mL,,H37Rv,inhibition,BACTEC,0%
CCOC(=O)Nc1cc(NC/C(=N/O)c2ccc(C(F)(F)F)cc2)c([N+](=O)[O-])c(N)n1,,,H37Rv,EC50,,>12.5 µg/mL
COc1ccc(/C=C/C(=O)c2cc(C(=O)O)ccc2O)cc1,,,H37Rv,EC50,,>12.5 µg/mL
CCOc1ccc(-n2c(-c3ccc(O)cc3)cs/c2=N\NC(=O)COc2cnccn2)cc1,,,H37Rv,MIC,,15 µg/mL
O=C(N/N=C/c1ccc[nH]1)c1ccc(F)cc1,,,H37Rv,MIC,,>6.25 µg/mL
Cc1cc(-c2cc3c(cc2F)c(=O)c(C(=O)O)cn3C2CC2)cc(C)n1,,,H37Rv,MIC,,1 µg/mL
Cc1ccc(C(=O)CN2C(=O)COc3ccccc3C2=O)cc1,,,18b,MIC,resazurin,4 µg/mL
CCCCC(/C=N/NC(=O)C(=O)N/N=C/C(CC)CCCC)CC,,,H37Rv,MIC bound,BACTEC,>12.5 µg/mL
CCOC(=O)Nc1cc(NC(c2ccccc2)c2ccccc2)c2ncc(=O)[nH]c2n1,,,H37Rv,EC50,,>12.5 µg/mL
CO[C@H]1/C=C/O[C@@]2(C)Oc3c(C)c(O)c4c(=O)c(c5oc6cc(N7CCN(CC(C)C)CC7)cc(=O)c6nc5c4c3=C2O)NC(=O)/C(C)=C\C=C\[C@H](C)[C@H](O)[C@@H](C)[C@@H](O)[C@@H](C)[C@H](OC(C)=O)[C@@H]1C,,,TN1733,MIC,,8 µg/mL
O=C1CC(c2ccc(O)c(O)c2)Oc2c1c(O)cc(O[C@@H]1O[C@H](CO)[C@@H](O)[C@H](O)[C@H]1O)c2C1C(=O)c2c(O)cc(O)cc2OC1c1ccc(O)cc1,12.5 µg/mL,,,inhibition,,0%
CC(C)NC(=S)NNC(=O)COc1cnccn1,,,H37Rv,MIC,,56 µg/mL
CSC(=S)N/N=C(/C)Cc1ccccn1,,,H37Rv,MIC,BACTEC,1.6 µg/mL
COc1ccc(-c2oc3c(I)cccc3c(=O)c2O)cc1,,,H37Rv,MIC,,>12.5 µg/mL
CCCCn1c(-c2ccc(Br)cc2)cs/c1=N\NC(=O)COc1cnccn1,,,H37Rv,MIC,,19 µg/mL
O=C1OC(c2ccccc2)=N/C1=C\c1c(O)cc(O)cc1O,,,H37Rv,MIC bound,BACTEC,>12.5 µg/mL
O=C(N/N=C/c1ccc([N+](=O)[O-])cc1)c1ccc(F)cc1,,,H37Rv,MIC,,>6.25 µg/mL
CCOC(=O)N(c1ccc(S(N)(=O)=O)cc1)c1cc(Cl)c([N+](=O)[O-])c(N)n1,,,H37Rv,EC50,,>12.5 µg/mL
C/C(=C1/N=C(c2cc([N+](=O)[O-])ccc2Cl)N(c2ccc(Br)cc2)C1=O)c1cc2ccccc2oc1=O,,,H37Rv,MIC bound,BACTEC,>12.5 µg/mL
O=C(N/N=C/c1ccc([N+](=O)[O-])s1)c1ccc(F)cc1,,,H37Rv,EC50,,<6.25 µg/mL
CO[C@H]1/C=C/O[C@@]2(C)Oc3c(C)c(O)c4c(O)c(c(/C=N/N5CCN(C6CCCC6)CC5)c(O)c4c3C2=O)NC(=O)/C(C)=C\C=C\[C@H](C)[C@H](O)[C@@H](C)[C@@H](O)[C@@H](C)[C@H](OC(C)=O)[C@@H]1C,,,13268,MIC,,0.04 µg/mL
Cc1onc(-c2ccccc2Cl)c1C(=O)N[C@@H]1C(=O)N2[C@@H]1SC(C)(C)[C@@H]2C(=O)O,,,H37Ra,Mean MIC,,80 µg/mL
CCc1nc2ccccc2n1CCCCOc1ccc(Cl)cc1,,Rv1339 V90M,H37Rv,fold resistance,turbidity / fluorescence,0.9
CO[C@H]1/C=C/O[C@@]2(C)Oc3c(C)c(O)c4c(O)c(c5c(c4c3C2=O)NC2(CCN(CC(C)C)CC2)N=5)=NC(=O)/C(C)=C\C=C\[C@H](C)[C@H](O)[C@@H](C)[C@@H](O)[C@@H](C)[C@H](OC(C)=O)[C@@H]1C,,,H37Rv,Mean MIC,,0.034 µg/mL
O=C(/C=C/c1ccccc1)c1cc(Cl)ccc1O,,,H37Rv,MIC,,>12.5 µg/mL
CCc1nc2ccccc2n1CCCCOc1ccc(C)c(Cl)c1,,QcrB M342T,H37Rv,MIC90,turbidity / fluorescence,31 µM
C=C1C[C@]2(C)c3ccccc3NC(=O)[C@H]12,12.5 µg/mL,,H37Rv,inhibition,BACTEC,0%
CCOC(=O)Nc1cc(NCc2ccc(S(N)(=O)=O)cc2)c2ncc(C)nc2n1,12.5 µg/mL,,H37Rv,inhibition,,0%
CC(=O)O[C@]1(C)[C@@H](C)C(=O)O[C@@H]2CCN3CC=C(COC(=O)[C@]1(C)O)[C@H]23,,,H37Rv,MIC bound,BACTEC,>12.8 µg/mL
Cc1cccc(NC(=O)c2cc3c(oc2=O)CC(C)(C)CC3=O)c1,,,18b,MIC,resazurin,8 µg/mL
CC(/C=N/Nc1ccc(C(=O)O)cc1)=N\NC(=O)CC#N,,,H37Rv,MIC bound,BACTEC,>12.5 µg/mL
CCc1nc2ccc(C)cc2n1CCCCNc1ccccc1,,WT,H37Rv,MIC90,turbidity / fluorescence,0.21 µM
COc1ccc(C(=O)/C=C/c2cccnc2)cc1,12.5 µg/mL,,H37Rv,inhibition,,0%
CC(=O)NC[C@H]1CN(c2ccc(N3CCOCC3)c(F)c2)C(=O)O1,,T460C Cys154Arg,linezolid resistant 8.1,MIC,,16 µg/mL
CNC(=O)N(C)c1cc(N(C)C)nc(OC)n1,,,H37Rv,MIC,BACTEC,≥12.5 µg/mL
Nc1ccc(C(=O)O)c(O)c1,,,H37Ra,Mean MIC,,>2 µg/mL
CCc1nc2ccccc2n1CCCCOc1ccccc1,,Rv1339 V90M,H37Rv,fold resistance,turbidity / fluorescence,0.4
C[C@@H]1CN(c2c(F)c(N)c3c(=O)c(C(=O)O)cn(C4CC4)c3c2F)C[C@H](C)N1,,,H37Ra,Mean MIC,,0.12 µg/mL
O=C(O)c1ccc2oc(-c3ccccc3)cc(=O)c2c1,,,H37Rv,MIC,,>12.5 µg/mL
NCC[C@H](O)C(=O)N[C@@H]1C[C@H](N)[C@@H](O[C@H]2O[C@H](CN)[C@@H](O)[C@H](O)[C@H]2O)[C@H](O)[C@H]1O[C@H]1O[C@H](CO)[C@@H](O)[C@H](N)[C@H]1O,,,A2B (amikacin-resistant),MIC,,128 µg/mL
CCOC(=O)CCc1c(C)c2c(OC(C)=O)cc(OC(C)=O)cc2oc1=O,12.5 µg/mL,,H37Rv,inhibition,BACTEC,-2%
CC1COc2c(N3CCN(C)CC3)c(F)cc3c(=O)c(C(=O)O)cn1c23,,,H37Ra,Mean MIC,,0.75 µg/mL
Cc1cc(=O)c2c(O)c3c(O)cc(=O)c4c3c3c(cc(O)c1c23)C(C)(C)C=4O,,,Clinical isolate,MIC,resazurin,2 µg/mL
Cc1ccc(-n2cc(CSC3c4ccccc4-c4ccccc43)nn2)cc1,,,Specimen 192,MIC99,broth dilution,135 µM
Nc1ccccc1/C=C/C(=O)c1ccc(Br)cc1O,,,H37Rv,MIC,,>12.5 µg/mL
CC(=O)Nc1ccc(/C=N/NC(=S)NCCCN2CCN(CCCNC(=S)N/N=C/c3ccc(NC(C)=O)cc3)CC2)cc1,,,H37Rv,MIC,BACTEC,≥12.5 µg/mL
O=C1CC(c2ccccc2)Oc2c(I)cccc21,12.5 µg/mL,,H37Rv,inhibition,,5%
COc1ccc(-n2cc(CSC3c4ccccc4-c4ccccc43)nn2)cc1,,,Specimen 192,MIC99,broth dilution,129.7 µM
O=C1c2ccccc2-c2nc3ccccc3n21,,,18b,MIC,resazurin,4 µg/mL
OCC[NH+]1CCN(C(=S)S)CC1,6.25 µg/mL,,H37Rv,inhibition,resazurin,3%
O=C(N/N=C/c1ccc(Br)s1)c1ccc(F)cc1,6.25 µg/mL,,H37Rv,inhibition,,98%
NNC(=O)c1ccncc1,,,Isolate G0,MIC,,0.031 µg/mL
O=C([C@@H](O)CO)N1CC=C(c2c(F)cc(N3C[C@H](COc4ccon4)OC3=O)cc2F)CC1,,,H37Rv STR-resistant (ATCC 35820),MIC,broth dilution,1 µg/mL
COc1ccc(Br)c2c1C(=O)CC(c1ccccc1)O2,,,H37Rv,EC50,,<12.5 µg/mL
CN1CCOP(=O)(Oc2ccccc2)N1,,,H37Rv,MIC,BACTEC,64 µg/mL
O=C(/C=C/c1ccccc1)c1cc(-c2ccccc2)ccc1O,,,H37Rv,MIC,,>12.5 µg/mL
NNC(=O)c1ccncc1,,T460C Cys154Arg,AZD5847-resistant 4.1,MIC,,0.06 µg/mL
NC[C@H]1O[C@H](O[C@H]2[C@H](O)[C@@H](O[C@H]3O[C@H](CO)[C@@H](O)[C@H](N)[C@H]3O)[C@H](N)C[C@@H]2N)[C@H](O)[C@@H](O)[C@@H]1O,,,H37Ra,Mean MIC,,2.81 µg/mL
CO[C@H]1/C=C/O[C@@]2(C)Oc3c(C)c(O)c4c(O)c(c(/C=N/N5CCN(C)CC5)c(O)c4c3C2=O)NC(=O)/C(C)=C\C=C\[C@H](C)[C@H](O)[C@@H](C)[C@@H](O)[C@@H](C)[C@H](OC(C)=O)[C@@H]1C,,,MC8,MIC,,<2 µg/mL
COc1ccc(/C=C/C(=O)c2ccc([N+](=O)[O-])cc2)cc1,12.5 µg/mL,,,inhibition,,62%
O=C1COCC(=O)OCCOCCOCCOCCO1,12.5 µg/mL,,H37Rv,inhibition,BACTEC,-19%
O=C1c2ccccc2OC(c2cccc(Br)c2)C1O,12.5 µg/mL,,,inhibition,,60%
CCOC(=O)Nc1cc(NC(c2ccccc2)c2ccccc2)c2[nH]cnc2n1,,,H37Rv,EC50,,>12.5 µg/mL
O=S(=O)(SC1=NCCN1)c1cccc2ccccc12,6.25 µg/mL,,H37Rv,inhibition,resazurin,-81%
COc1ccc(/C=C/C(=O)c2cccc(I)c2O)cc1,,,H37Rv,EC50,,>12.5 µg/mL
COc1ccc(N=Nc2ccc3oc(=O)c(C(=O)Nc4ccccc4)cc3c2)cc1,6.25 µg/mL,,H37Rv,inhibition,resazurin,-6%
C[C@@H]1CN(c2c(F)c(N)c3c(=O)c(C(=O)O)cn(C4CC4)c3c2F)C[C@H](C)N1,,,900241,MIC,,0.2 µg/mL
CO[C@H]1/C=C/O[C@@]2(C)Oc3c(C)c(O)c4c(O)c(c(/C=N/N(c5ccccc5)c5ccccc5)c(O)c4c3C2=O)NC(=O)/C(C)=C\C=C\[C@H](C)[C@H](O)[C@@H](C)[C@@H](O)[C@@H](C)[C@H](OC(C)=O)[C@@H]1C,,,H37Rv,MIC bound,BACTEC,≤12.5 µg/mL
FC(F)(F)c1ccc(-n2cc(CNC3c4ccccc4-c4ccccc43)nn2)cc1,,,Specimen 192,MIC99,broth dilution,123.3 µM
O=C1c2cccc(NCCNCCO)c2C(=O)c2cccc(NCCNCCO)c21,12.5 µg/mL,,H37Rv,inhibition,BACTEC,9%
O=[N+]([O-])c1ccccc1-n1cc(CSC2c3ccccc3-c3ccccc32)nn1,,,H37Rv,MIC99,broth dilution,>250 µM
O=C(COc1cnccn1)NNC(=S)Nc1ccc(Cl)cc1Cl,,,H37Rv,MIC,,65 µg/mL
NNC(=O)c1ccncc1,,,84396,MIC,,≥0.2 µg/mL
CC(=O)NNc1nc(C)c(C(=O)NNC(=O)C(=O)Nc2cccc(C(C)=O)c2)s1,12.5 µg/mL,,H37Rv,inhibition,BACTEC,5%
CCc1nc2ccccc2n1CCCCSc1nnc(-c2ccc(Cl)cc2)o1,,Rv1339 V90M,H37Rv,MIC90,turbidity / fluorescence,1.5 µM
O=C(Cc1nc2cc(Cl)c(Cl)cc2nc1CC(=O)c1ccncc1)c1ccncc1,6.25 µg/mL,,H37Rv,inhibition,BACTEC,95%
Cc1ccc(-c2cs/c(=N\NC(=O)COc3cnccn3)n2-c2ccc(Cl)cc2Cl)cc1,,,H37Rv,MIC,,11.5 µg/mL